Assay results published in patent US20240218055A1.
Where two headings read alike, the source gives them in different places.

Tests used:
[1] = target: stabilized soluble LASV GPC trimer (Lassa virus)
[2] = target: stabilized soluble LASV GPC trimer (Lassa virus); remark: listed apart in the source

Substance: 10.4B
- Kd [1]: 66.3 nM
- Kd [2]: 66.3 nM
- koff [2]: 0.00357 s⁻¹
- kon [2]: 53800 M⁻¹ s⁻¹
